Values from PubChem BioAssay AID504761 (Drosophila RNAi Screening Center, 2011)

- Screen: 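Insect host genes that dengue virus relies on to spread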 (primary screen)
- Cell system: D.Mel-2 cells from Drosophila
- Reagent: long dsRNA against Drosophila genes
- Treatment: infection with dengue virus type 2; dose and infection time not stated
- Read-out: 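Cells stained for dengue envelope protein and imaged; percent of infected cells per well on duplicate plates, ranked by infection, with stained nuclei counted for cell number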
- Reading the numbers: infection score: higher = more virus-infected cells; cell count: higher = more cells in the well
- Rule for the call: 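Very low infection ranking in both replicate wells (chance probability at most 0.065), then a retest showing infection dropped 1.5-fold or more at p below 0.05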
- Calls: active = confirmed: knock-down lowers infection; inactive = not picked or not confirmed
The screen tested about 22,000 reagents; this is a random part of those with a known target gene and a result. In the full data, 116 (0.52%) are marked active. 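Calls depend on retest data that are not deposited; infection was ranked per plate without normalising between plates; the unit of the infection score is not given.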 The raw values are shown without normalisation. Names joined by + are all predicted targets of the reagent. Not stated in the record: the amount of reagent, the time to read-out.

The first 3 entries as a preview:
gene	dsRNA	infection score, replicate 1	infection score, replicate 2	cell count, replicate 1	cell count, replicate 2	activity call
Obp57e (Odorant-binding protein 57e)	DRSC05891	1.68	0.25	6082	6060	inactive
strat (stratum)	DRSC03069	12.9	23.6	5219	4587	inactive
gprs	DRSC06761	9.85	20.6	3075	7094	inactive

The listing, from the start:
gene	dsRNA	infection score, replicate 1	infection score, replicate 2	cell count, replicate 1	cell count, replicate 2	activity call
Obp57e (Odorant-binding protein 57e)	DRSC05891	1.68	0.25	6082	6060	inactive
strat (stratum)	DRSC03069	12.9	23.6	5219	4587	inactive
gprs	DRSC06761	9.85	20.6	3075	7094	inactive
DCAF12 (DDB1 and CUL4 associated factor 12)	DRSC15475	2.72	3.96	7210	7454	inactive
Cpr50Ca (Cuticular protein 50Ca)	DRSC05454	2.57	3	6068	5838	inactive
Cpr50Ca (Cuticular protein 50Ca)	DRSC06372	24.7	13.8	5397	6080	inactive
Cpr50Ca (Cuticular protein 50Ca)	DRSC06375	16.5	19.9	4451	6233	inactive
CG6974	DRSC16160	9.48	18.6	3059	4751	inactive
CG15528	DRSC15065	4.52	3.47	6702	7069	inactive
EMC7 (ER membrane protein complex subunit 7)	DRSC07162	11.4	11.8	6559	6587	inactive
dare + CG30033	DRSC22908	1.52	19.7	7088	6334	inactive
PpY-55A (Protein phosphatase Y at 55A)	DRSC07513	7.18	10.1	6542	6531	inactive
PpY-55A (Protein phosphatase Y at 55A)	DRSC23328	0.78	21	6265	6176	inactive
PpY-55A (Protein phosphatase Y at 55A)	DRSC26547	14.1	19.5	5870	6751	inactive
MESR3 (Misexpression suppressor of ras 3)	DRSC02463	13.2	11.2	4986	2517	inactive
Pabp2	DRSC07501	31.8	1.32	2159	606	inactive
Irbp (Inverted repeat-binding protein)	DRSC17007	2.02	8.25	6597	6896	inactive
Irbp (Inverted repeat-binding protein)	DRSC23317	4.12	4.3	6335	6518	inactive
Irbp (Inverted repeat-binding protein)	DRSC29386	12.8	10.1	4230	4585	inactive
CG31517	DRSC13010	6.66	3.23	5717	6343	inactive
CG14613	DRSC20625	1	9.04	6297	7037	inactive
CG14613	DRSC27260	24.8	13.4	4558	6733	inactive
Rac1	DRSC08688	1.29	1.31	6224	6356	inactive
Rac1	DRSC25131	3.79	12.8	6783	6970	inactive
Apoltp (Apolipoprotein lipid transfer particle)	DRSC02508	10	6.02	6170	6009	inactive
CG18130	DRSC19790	4.76	0.99	6474	6771	inactive
CG18130	DRSC24767	4.15	4.23	6243	6081	inactive
Gba1b (Glucocerebrosidase 1b)	DRSC21531	1.15	4.13	5922	6544	inactive
Mst27D (Male specific transcript 27D)	DRSC00967	1.73	2.86	6116	6573	inactive
CG6985	DRSC16164	13.3	6.65	6282	6905	inactive
CG6985	DRSC24923	4.56	1.88	6693	6314	inactive
dbf (doublefault)	DRSC02570	11.7	8.85	2942	5842	inactive
dbf (doublefault)	DRSC27207	25.2	12.6	4631	5747	inactive
NTPase	DRSC00761	5.04	6.2	6355	5818	inactive
NTPase	DRSC26233	9.91	12.5	4653	6083	inactive
CG7191	DRSC03022	3.34	5.47	6130	5884	inactive
CG7191	DRSC26094	13.4	5.57	5869	6433	inactive
Suv3 (Suv3 helicase)	DRSC12335	20.1	28.7	2737	5074	inactive
CG6184	DRSC15986	9.13	11.9	6317	6009	inactive
Cyp6t2Psi (pseudo)	DRSC01840	1.87	1.22	5873	6090	inactive
Cyp6t2Psi (pseudo)	DRSC29500			292	362	inactive
SkpD (SKP1-related D)	DRSC22208	2.17	1.53	6629	6814	inactive
CG13724	DRSC10053	1.49	1.7	6234	6284	inactive
CG13724	DRSC25395	10	19.2	4821	4940	inactive
Gapdh1 (Glyceraldehyde 3 phosphate dehydrogenase 1)	DRSC07433	4.43	5.36	6528	1363	inactive
Gapdh1 (Glyceraldehyde 3 phosphate dehydrogenase 1)	DRSC25746	0.6	4.03	6122	6158	inactive
Amy-p (Amylase proximal)	DRSC06786	13.2	2.52	5117	6943	inactive
Stt3B	DRSC16781	0.49	3	6083	6296	inactive
asrij	DRSC04175	5.63	3.41	6674	6924	inactive
CG14740	DRSC14960	4.82	15.7	1744	5995	inactive
trus (toys are us)	DRSC15772	2.9	10.7	6197	5815	inactive
trus (toys are us)	DRSC25521	4.62	3.88	6109	5831	inactive
GlnRS (Glutaminyl-tRNA synthetase)	DRSC14140	3.56	11.3	5022	5210	inactive
Cnb (Centrobin)	DRSC08569	12.1	3.96	6506	7093	inactive
CG31612	DRSC03697	1.41	1.91	6191	6792	inactive
CG31612	DRSC03698	2.42	8.28	6699	6739	inactive
crb (crumbs)	DRSC16927	2.4	2.51	6697	6764	inactive
CG15515	DRSC15054	1.81	3.71	6084	6339	inactive
